Pooled drug test results. Numbers come from NIAID ChemDB, via PubChem.

All rows: tests in culture; agent: HIV-1; read by: p24 / luminescence; endpoint: EC50

ECn is the concentration giving n% inhibition of infection, replication or growth. An empty or dashed field is not shown. Conditions beyond the fields shown may differ between rows.

CN[C@H]1CO[C@@H]2OCC[C@H](OC(=O)N[C@@H](Cc3ccccc3)[C@H](O)CN(CC(C)C)S(=O)(=O)c3ccc4nc(NC5CC5)sc4c3)[C@@H]21 ; strain: NL4-3 ; cell line: MT-4 ; changes: L10I N37D G48V I54V L63P G73C I84V L90M ; value: 0.027 µM
C#C[C@]1(CO)O[C@@H](n2cnc3c(N)nc(F)nc32)C[C@@H]1O ; strain: NL4-3 ; cell line: MT-4 ; value: 0.00098 µM
O=C(NC(=S)Nc1ccc(Br)cn1)c1ccccc1[N+](=O)[O-] ; strain: Clinical isolate ; cell line: PBMC ; conditions: clinical isolate, multidrug-resistant ; changes: L10I K14R L33I M36I M46I F53I K55R I62V L63P A71V G73S V82A L90M I93L ; value: 0.36 µM
CC(C)CN(C[C@@H](O)[C@H](Cc1cc(F)cc(F)c1)NC(=O)O[C@H]1CCO[C@H]2OCC[C@H]21)S(=O)(=O)c1ccc2nc(NC(C)C)sc2c1 ; strain: 97ZA003 ; cell line: PBMC ; value: 0.0006 µM
CC(C)CN(C[C@@H](O)[C@H](Cc1ccccc1)NC(=O)O[C@H]1CCOC1)S(=O)(=O)c1ccc(N)cc1 ; strain: NL4-3 ; cell line: MT-4 ; changes: L10F V32I L33F M46L I54M A71V ; value: >1 µM
COC(=O)N[C@H](C(=O)N[C@@H](Cc1ccccc1)[C@@H](O)CN(Cc1ccc(-c2ccccn2)cc1)NC(=O)[C@@H](NC(=O)OC)C(C)(C)C)C(C)(C)C ; strain: NL4-3 ; cell line: MT-4 ; changes: M46I V82F I84V ; value: 0.0364 µM
Cc1cccc(C)c1OCC(=O)N[C@@H](Cc1ccccc1)[C@@H](O)C[C@H](Cc1ccccc1)NC(=O)[C@H](C(C)C)N1CCCNC1=O ; strain: BaL ; cell line: PBMC ; value: 0.017 µM
CCC[C@]1(CCc2ccccc2)CC(O)=C([C@@H](CC)c2cccc(NS(=O)(=O)c3ccc(C(F)(F)F)cn3)c2)C(=O)O1 ; strain: NL4-3 ; cell line: MT-4 ; value: 0.0332 µM
COc1ccc(S(=O)(=O)N(CC(C)C)C[C@@H](O)[C@H](Cc2ccc(OC)c(Cl)c2)NC(=O)O[C@H]2CO[C@H]3OCC[C@H]32)cc1 ; strain: NL4-3 ; cell line: MT-4 ; value: 0.00037 µM
CCC[C@@]1(CCc2ccccc2)CC(O)=C([C@H](CC)c2cccc(NS(=O)(=O)c3ccc(C(F)(F)F)cn3)c2)C(=O)O1 ; strain: NL4-3 ; cell line: MT-4 ; value: 0.3629 µM
Nc1nc(NC2CC2)c2ncn([C@H]3C=C[C@@H](CO)C3)c2n1 ; strain: NL4-3 ; cell line: MT-4 ; value: 1.51 µM
COc1ccc(S(=O)(=O)N(CC(C)C)C[C@@H](O)[C@H](Cc2ccccc2)NC(=O)O[C@H]2CO[C@@H]3O[C@H]4OCC[C@H]4[C@@H]32)cc1 ; strain: NL4-3 ; cell line: MT-4 ; changes: M46I V28F I84V ; value: 0.5043 µM
CCN[C@H]1CO[C@@H]2OCC[C@H](OC(=O)N[C@@H](Cc3cccc(OC)c3)[C@H](O)CN(CC(C)C)S(=O)(=O)c3ccc4nc(NC(C)C)sc4c3)[C@@H]21 ; strain: NL4-3 ; cell line: MT-4 ; changes: L10I N37D G48V I54V L63P G73C I84V L90M ; value: 0.0049 µM
COC(=O)N[C@H](C(=O)N[C@@H](Cc1ccccc1)[C@@H](O)CN(Cc1ccc(-c2ccccn2)cc1)NC(=O)[C@@H](NC(=O)OC)C(C)(C)C)C(C)(C)C ; strain: 97ZA003 ; cell line: MT-2 ; value: 0.0028 µM

For reference, 2 entries again:

structure,strain,cell line,conditions,changes,value
CC(C)CN(C[C@@H](O)[C@H](Cc1ccccc1)NC(=O)O[C@H]1CCOC1)S(=O)(=O)c1ccc(N)cc1,NL4-3,MT-4,-,L10F V32I L33F M46L I54M A71V,>1 µM
CCC[C@]1(CCc2ccccc2)CC(O)=C([C@@H](CC)c2cccc(NS(=O)(=O)c3ccc(C(F)(F)F)cn3)c2)C(=O)O1,NL4-3,MT-4,-,-,0.0332 µM